Data reported in publication PMC13395416 (PLOS Pathogens, 2026).

Target: SteC_(210-457;K256H), entire predicted kinase domain (Salmonella Typhimurium strain 14028s, UniProt D0ZIB5 210-457, K256H)
Experiment: HDX-MS

B1: FMNL1 K190 24mer peptide (K190-K213) (peptide, UniProt O95466 190-213, looked up)
peptide: KGPPSSVPKSRHLTIKLTPAHSRK
notes: also called FMNL1 peptide; FMNL1 K190 peptide
Q: Does B1 bind?
A: binds
